Data taken from the supplement of paper PMC9931576.
Human monoclonal antibodies against the spike receptor-binding domain (heavy:light variable regions). IC50 against pseudoviruses bearing the spike of naturally observed variants; lower = stronger; >10 µg/ml means not reached at the top dose. No active / inactive call. The stated detection limit is 0.0005 µg/ml; values near or below 0.001 µg/ml lie at the floor of the assay.

B1: XGv-387 (protein)
chain 1: EVQLVESGGGLIQPGGSLRLSCAASGVIVSSNYMSWVRQAPGKGLEWVSVMYSGGSTFYADSVKGRFTISRDNSKNTLYLQMNRLRAEDTAVYFCARGDGGSYLGGAFDIWGQGTMVTVSS
chain 2: DIQMTQSPSSLSASVGDRVTLTCRASQSISTYLNWYQQKPGKAPKLLIYAASSLQSGVPSRFSGSGSGTDFTLTINSLQPEDFATYYCQQSYSLPALTFGGGTKVEIK
B2: XGv-401 (protein)
chain 1: QVQLQESGPGLVKPSQTLSLTCTVSGGSISSDSYYWSWIRQPAGKGLEWIGRIYTRGGTNYNPSLKSRVTISVDTSKNQFSLKLSSVTAADTAVYYCAKGIAVAGTDDYYYYYGMDVWGQGTTVTVSS
chain 2: SYELTQPPSVSVSPGQTARITCSGDALPKQYAYWYQQKPGQAPVVVIYKDSERPSGIPERFSGSSSGTTVTLTISGVQAEDEADYYCQSADSRNTYLVFGGGTKLTVL
B3: XGv-404 (protein)
chain 1: EVQLVESGGGLIQPGGSLRLSCTASGITVSRNYMNWVRQAPGKGLEWVSMIYSGGSSFYADSVKGRFTISRDTSKNTLYLQMNSLRAEDTAVYYCARHSPHRPGEIWGQGTLVTVSS
chain 2: DIQMTQSPPSLSASVGDRVTITCQASQDISNYLNWYQQKPGKAPKLLIYDASNLEIGVPSRFSGSGSGTDFALTISSLQPEDIATYYCPQCDNLPCTFGGGTKVEI
B4: XGv-421 (protein)
chain 1: EVQLVESGGGLIQPGGSLRLSCQASGLSVNDNYMTWVRQAPGKGLQWVSVIYNGDTTYYADSVKGRFTISTDTSKNTVHLQMNSLRAADTAVYFCAREYCSGGNCYSGGGRGYGAFDIWGQGTMVTVSS
chain 2: DIQMTQSPSSVSASVGDRVTITCRASQAISSWLAWYQQKPGKAPKLLIYAASDLLGGVPSRFSGSESGTDFTLTINNLQPEDFATYYCQQSHTFPLTFGGGTKVEIK
B5: XGv-422 (protein)
chain 1: QVQLVQSGAEVKKPGASVKVSCKASGYTYTSYPMHWVRQAPGQRLEWMGRINAVNGNTKYSQKFQGRVSITSDTSASTAHMELSGLRFEDTGVYYCARDQVSVAGAPNDDYFYYYGMDVWGQGTTVSVSS
chain 2: SYELTQPPSVSVSPGQTARITCSGDALPKQYAYWYQQKPGQAPVMVIYKDNERPSGIPERFSGSSSGTTIRLTISGVQPEDEADYYCQSVDSSGSYVVFGGGTKLT
B6: BD57-002 (protein)
chain 1: EVQLVESGGGLIQPGGSLRLSCVASGFSVSNNYVTWVRQAPGKGLEWVSVIYSAGSTYYADSVKGRFTISRDNSKNTLYLQMNSLSADDTAVYYCAREASRPGYNWAYYFDYWGQGTLVTVSS
chain 2: QSALTQPASVSGSPGQSITISCTGTTSDVGGYNFVSWYQHHPGKAPKVMIYDVSERPSGVSNRFSGSKSGNTASLTISGLQADDEADYYCASYTSSSTFVFGTGTKVTVL
B7: BD57-008 (protein)
chain 1: EVQLVESGGGLVQPGRSLRLSCAASGFTFDDYAMHWVRQAPGKGLEWVSGISWNSGDIGYAGSVKGRFTISRDNAKNSLYLQMNSLRTEDTAFYYCAKGWLGELFGGMDYWGQGTLVTVSS
chain 2: QPVLTQSSSASASLGSSVKLTCTLNSVHSSYLIAWHQQQPGKAPRYLMKLEGSGIYNKGSGVPDRFSGSSSGADRFLTISNLQSEDEADYYCETWDSNTRVFGGGTKLTVL
B8: BD57-009 (protein)
chain 1: EVQLVESGGGLIQPGGSLRLSCAASGVTVNRNYMSWVRQAPGKGLEWVSVIYPGGSTFYTDSVKGRFSISRDSSKNTLYLQMNNLRAEDTAVYYCARTLFDAFDIWGQGTMVTVSS
chain 2: DIQLTQSPSFLSASVGDRVTITCRASQGISIYLAWYQQKPGKAPRLLIYAASTLQSGVPSRFSGSGSGTEFTLTISSLQPEDFATYFCQQLNSYPPVTFGQGTRLEIK
B9: BD57-010 (protein)
chain 1: QLQLQESGPGLLKPSETLSLTCTVSGDSFGSSNFHWGWIRQPPGKGLEWVGSIYYSGSAHYNPSLKSRVTISLDTSKNQISLKLRSVTAADTAVYYCATRFWIFGLVSYFDYWGQGTLVTVSS
chain 2: DIQMTQSPSSLSASVGDRVTIPCRASQNINNYLNWYQQKPGKAPKLLIYAASSLQSGVPSRFSGSGSGTDFTLIISSLQPEDFATYYCQQTYNNVSFGGGTKVEFK
B10: BD57-015 (protein)
chain 1: QEQLVESGGGVVQPGRSLRLSCAASGFTFRTHAMHWVRQAPGKGLEWVAVIWNDGSNKEYADSVKGRFTISRDNSKKTLSLQMDSLRDEDTAVYYCAREGIAAPGSASDAFDIWGQGTMVTVSS
chain 2: DIQMTQSPSSLSASVGDTVTITCRTSQTISNFLNWYQQKPGKAPKVLIYAASSLQSGVPSRFSGSGSGTDFALTISSLQYEDFATYYCQQSYSPRYTFGQGTKVEIK
B11: BD57-019 (protein)
chain 1: QVQLVQSGAEVKKPGASVKVSCKASGYTFTSYGISWVRQAPGQGLEWMGWISTYNDNTNYEQEFQGRVTMTTDTSTSTAYMELRSLRSDDTAVYYCARYGLYYFDRSGYYDMSPDDAFDIWGQGTMVTVSS
chain 2: QSVLTQPPSVSGAPGQRVTISCTGSSSNIGAGYDVHWYQQLPGTAPKLLIYGNSNRPSGVPDRFSGSKSGTSASLAITGLQAEDEADYYCQSYDSSLSGVVFGGGTKLTVL
B12: BD57-023 (protein)
chain 1: QITLKESGPTLVKPTQTLTLTCTFSGFSLSTGGVAVGWIRQPPGKALEWLALIYWDDDKRYSPSLKSRLSITKDTSKNQVVLTMTNMDPVDTATYYCVHSGYNAYGDWEGFDFWGQGTLVAVSS
chain 2: SYELTQPPSVSVSPGQTARITCSADTFPKQYTYWYQQKAGQAPVLVIYKDTERPSGIPERFSGSSSGTIVTLSISGVRAEDEADYYCHSADSSGAYPVVFGGGTKLTVL
B13: BD57-025 (protein)
chain 1: EVQLVESGGGLIQPGGSLRLSCAASGVTVSSNYMSWVRQAPGKGLEWVSLIYPGGSTYYADSVKGRFTISRDNSKNTLYLQMNSLRAEDTAVYYCARDGMGLGGADYWGQGTLVTVSS
chain 2: DIQMTQSPSSLSPSVGDRVTITCQASQDINIFLNWYQQKPGKAPKLLIYDASNLETGVPSRFSGSGSGTDFTFTISSLQPEDIATYYCQQYDNLPRTFGQGTKLEIK

Molecular target: SARS-CoV-2 Omicron BA.1 spike pseudovirus
Assay: pseudovirus neutralization IC50; higher = weaker neutralization
Experimental: (§1)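 Single-round VSV luciferase pseudovirus mixed with antibody dilutions for 1 h and put on Huh-7 cells for about a day; IC50 from the dose curve.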

Point of comparison: B11, “pseudovirus neutralization IC50” value 1.49 µg/mL. Against it:
- B1 — 6.4-fold lower, 0.234 µg/mL
- B2 — 2.9-fold lower, 0.522 µg/mL
- B3 — higher, > 10 µg/mL
- B4 — higher, > 10 µg/mL
- B5 — 3.9-fold lower, 0.378 µg/mL
- B6 — 5.9-fold lower, 0.254 µg/mL
- B7 — higher, > 10 µg/mL
- B8 — 89-fold lower, 0.0168 µg/mL
- B9 — 130-fold lower, 0.0112 µg/mL
- B10 — 17-fold lower, 0.0867 µg/mL
- B12 — 65-fold lower, 0.0231 µg/mL
- B13 — 1300-fold lower, 0.00119 µg/mL

Molecular target: SARS-CoV-2 Omicron BA.2 spike pseudovirus
Assay: as above
Experimental: as §1

Point of comparison: B10, “pseudovirus neutralization IC50” value 0.00329 µg/mL. Against it:
- B1 — 41-fold higher, 0.136 µg/mL
- B2 — 430-fold higher, 1.4 µg/mL
- B3 — higher, > 10 µg/mL
- B4 — higher, > 10 µg/mL
- B5 — 120-fold higher, 0.398 µg/mL
- B6 — 6.6-fold lower, 0.0005 µg/mL
- B7 — higher, > 10 µg/mL
- B8 — 6.7-fold higher, 0.0222 µg/mL
- B9 — 2.7-fold higher, 0.00895 µg/mL
- B11 — higher, > 10 µg/mL
- B12 — 3-fold lower, 0.00111 µg/mL
- B13 — 4.1-fold lower, 0.000801 µg/mL

Molecular target: SARS-CoV-2 Omicron BA.2.75 spike pseudovirus
Assay: as above
Experimental: as §1

Point of comparison: B2, “pseudovirus neutralization IC50” value 1.63 µg/mL. Against it:
- B1 — 2.2-fold lower, 0.744 µg/mL
- B3 — higher, > 10 µg/mL
- B4 — higher, > 10 µg/mL
- B5 — 3.3-fold lower, 0.495 µg/mL
- B6 — 3.5-fold lower, 0.465 µg/mL
- B7 — higher, > 10 µg/mL
- B8 — higher, > 10 µg/mL
- B9 — 800-fold lower, 0.00205 µg/mL
- B10 — 570-fold lower, 0.00288 µg/mL
- B11 — higher, > 10 µg/mL
- B12 — 57-fold lower, 0.0286 µg/mL
- B13 — higher, > 10 µg/mL

Molecular target: SARS-CoV-2 Omicron BA.5 spike pseudovirus
Assay: as above
Experimental: as §1

Point of comparison: B13, “pseudovirus neutralization IC50” value 0.00976 µg/mL. Against it:
- B1 — 550-fold higher, 5.36 µg/mL
- B2 — 95-fold higher, 0.928 µg/mL
- B3 — higher, > 10 µg/mL
- B4 — higher, > 10 µg/mL
- B5 — 70-fold higher, 0.681 µg/mL
- B6 — 12-fold lower, 0.00079 µg/mL
- B7 — higher, > 10 µg/mL
- B8 — 2.3-fold higher, 0.0228 µg/mL
- B9 — 150-fold higher, 1.45 µg/mL
- B10 — 22-fold higher, 0.219 µg/mL
- B11 — higher, > 10 µg/mL
- B12 — 5.6-fold lower, 0.00175 µg/mL

Molecular target: SARS-CoV-2 early D614G spike pseudovirus
Assay: as above
Experimental: as §1

Point of comparison: B8, “pseudovirus neutralization IC50” value 0.0178 µg/mL. Against it:
- B1 — within 1.5-fold, 0.0159 µg/mL
- B2 — 58-fold higher, 1.03 µg/mL
- B3 — 9.5-fold higher, 0.169 µg/mL
- B4 — 2.5-fold higher, 0.0439 µg/mL
- B5 — 22-fold higher, 0.394 µg/mL
- B6 — 18-fold lower, 0.001 µg/mL
- B7 — 48-fold higher, 0.86 µg/mL
- B9 — 5.6-fold lower, 0.00316 µg/mL
- B10 — 7.4-fold lower, 0.00239 µg/mL
- B11 — 32-fold higher, 0.566 µg/mL
- B12 — 12-fold lower, 0.0015 µg/mL
- B13 — 3.3-fold lower, 0.00541 µg/mL

Molecular target: SARS-CoV-2 Omicron BQ.1.1 spike pseudovirus
Assay: as above
Experimental: as §1

Point of comparison: B6, “pseudovirus neutralization IC50” value 0.0535 µg/mL. Against it:
- B2 — 12-fold higher, 0.63 µg/mL
- B3 — higher, > 10 µg/mL
- B4 — higher, > 10 µg/mL
- B5 — 20-fold higher, 1.06 µg/mL
- B7 — higher, > 10 µg/mL
- B8 — higher, > 10 µg/mL
- B9 — 71-fold higher, 3.82 µg/mL
- B10 — higher, > 10 µg/mL
- B11 — higher, > 10 µg/mL
- B12 — higher, > 10 µg/mL
- B13 — higher, > 10 µg/mL

Molecular target: SARS-CoV-2 Omicron XBB spike pseudovirus
Assay: as above
Experimental: as §1

Point of comparison: B5, “pseudovirus neutralization IC50” value 0.789 µg/mL. Against it:
- B2 — 1.7-fold higher, 1.31 µg/mL
- B3 — higher, > 10 µg/mL
- B4 — higher, > 10 µg/mL
- B6 — higher, > 10 µg/mL
- B7 — higher, > 10 µg/mL
- B8 — higher, > 10 µg/mL
- B9 — 5.1-fold higher, 4.02 µg/mL
- B10 — 47-fold lower, 0.0168 µg/mL
- B11 — higher, > 10 µg/mL
- B12 — higher, > 10 µg/mL
- B13 — higher, > 10 µg/mL
